Results on 19 compounds are retold here after paper PMC6271245, “Discovery of Gramine Derivatives That Inhibit the Early Stage of EV71 Replication in Vitro” (Molecules, 2014).

Structures are written as SMILES.

In data set [1] the test system is Enterovirus 71 (EV71). The data set is described as follows: Inhibition of EV71-induced cytopathogenicity (CPE) in Vero cells, MTT. The note with it: selectivity index, ratio CC50/EC50, Vero cells. It is filed as cell-based. As to the method: (§1) The antiviral activities of gramine and its derivatives against EV71 based on inhibition of virus-induced cytopathogenicity effects (CPEs) in African green monkey kidney cells (Vero) and rhabdomyosarcoma cells (RD) were examined. The cytotoxic effects were also evaluated. The inhibitory activities expressed as half maximal effective concentration (EC50) values and selectivity indexes (SI) for the target compounds are presented in Table 1, and the dose-dependent antiviral effects are shown in Figure 1A.
Figure 1 Gramine and its synthetic derivatives inhibited virus-induced CPE. (A) Vero cells were infected with 100 TCID50 of EV71 mixed with serial dilutions of tested compounds for 1.5 h at 37 °C; the inoculum was aspirated and cells were incubated with DMEM/tested compounds at 37 °C, 5% CO2 for 48 h pi. The viability of the cells was determined with an MTT assay; (B) Morphology image of Vero and RD cells treated with compounds 4a, 4i, 4r, and 4s for 48 h pi. (magnification, 20×).
(§2) The activity of compounds against EV71 was determined based on the inhibition of virus-induced cytopathogenicity effects (CPEs) in acutely infected cells. Vero and RD cells grown to 90% confluency in 96-well dishes were washed with phosphate buffered saline (PBS) and infected with 100 TCID50 of EV71 mixed with serial dilutions of tested compounds for 1.5 h at 37 °C. The inoculum was aspirated and cells were incubated with DMEM and test compounds at 37 °C, 5% CO2 for 48 h. The CPEs were observed microscopically and the viability of the cells was determined with a 3-(4,5-dimethylthiazol-2-yl)-2,5-diphenyltetrazolium bromide (MTT) assay. The concentrations required for the test compounds to achieve 50% protection from virus-induced cytopathogenicity (EC50) were determined. Adverse effects of these compounds on the host cells were also assessed by means of the MTT-method; by exposing uninfected cells to various concentrations of test compounds for 48 h at 37 °C, the viability of the cells was detected. The 50% cell cytotoxic concentrations (CC50) of compounds were calculated with the SPSS software (SPSS, Chicago, IL, USA). Selectivity indexes were calculated as the ratio of CC50: EC50.
(§3) Cell viability was assessed by an MTT assay, which functions based on the reduction of a MTT into formazan dye by active mitochondria. The cells were treated with 100 µL of MTT (1 mg/mL, Sigma, St. Louis, MO, USA) and incubated at 37 °C for 4 h. The reaction was blocked by DMSO and measured in a microplate reader (Bio-Tek Instruments, Winooski, VT, USA) at 492 nm. The untreated control was arbitrarily set as 100%.

The test system of data set [2] is Enterovirus 71 (EV71). In words: Inhibition of EV71-induced cytopathogenicity (CPE) in RD cells, MTT. Particulars: selectivity index, ratio CC50/EC50, RD cells. The class given is cell-based. As to the method:
as §1, §2, §3

In the case of `Cn1cc(C(Nc2ccccn2)c2ccc(F)cc2)c2ccccc21` (stereo not shown) [Compound 4i], the “SI Vero” value in the data set with Enterovirus 71 (EV71) [1] amounted to 12.9. For the same compound, in the data set with Enterovirus 71 (EV71) [2], the “SI RD” value is given as 10.7. The like results for `Cn1cc(C(Nc2ccccn2)c2ccccc2F)c2ccccc21` (stereo not shown) [Compound 4h] were, in that order, 8.5 and 4.7.

As to `Fc1ccccc1C(Nc1nc2ccccc2s1)c1c[nH]c2ccccc12` (stereo not shown) [Compound 4q], the “SI Vero” value in the data set with Enterovirus 71 (EV71) [1] was determined as 6.0. Also, the “SI RD” value in the data set on Enterovirus 71 (EV71) [2] was determined as 5.4. The like results for `c1ccc(C(Nc2ccccn2)c2c[nH]c3ccccc23)cc1` (stereo not shown) [Compound 4a] were, in that order, 2.6 and 3.1. `Cn1cc(C(Nc2ccccn2)c2ccccc2Cl)c2ccccc21` (stereo not shown) [Compound 4f]: the “SI Vero” value with Enterovirus 71 (EV71) [1] was found to be 6.0.

In the case of `Fc1ccccc1C(Nc1ccccn1)c1c[nH]c2ccccc12` (stereo not shown) [Compound 4d], the “SI Vero” value with Enterovirus 71 (EV71) [1] came out at 4.1. Besides, the “SI RD” value in the data set with Enterovirus 71 (EV71) [2] is 4.8. Consider `c1ccc(C(Nc2nc3ccccc3s2)c2c[nH]c3ccccc23)nc1` (stereo not shown) [Compound 4s], for which the “SI Vero” value with Enterovirus 71 (EV71) [1] turned out to be 14.3. In the data set on Enterovirus 71 (EV71) [2], the “SI RD” value amounted to 15.0.

With `Fc1ccc(C(Nc2ccccn2)c2c[nH]c3ccccc23)cc1` (stereo not shown) [Compound 4e], the “SI Vero” value with Enterovirus 71 (EV71) [1] amounted to 5.6. In addition, the “SI RD” value with Enterovirus 71 (EV71) [2] came to 4.8. The like results for `Cn1cc(C(Nc2ccccn2)c2ccc(Cl)cc2)c2ccccc21` (stereo not shown) [Compound 4g] were, in that order, 7.9 and 6.5. The like results for `Cn1cc(C(Nc2ccccn2)c2ccc(C(F)(F)F)cc2)c2ccccc21` (stereo not shown) [Compound 4k] were, in that order, 1.4 and 2.8. The like results for `Clc1ccc(C(Nc2ccccn2)c2c[nH]c3ccccc23)cc1` (stereo not shown) [Compound 4c] were, in that order, 4.0 and 3.7. Regarding `Cn1cc(C(Nc2ccccn2)c2ccncc2)c2ccccc21` (stereo not shown) [Compound 4o], the “SI Vero” value in the data set on Enterovirus 71 (EV71) [1] is given as 4.3. For the same compound, the “SI RD” value with Enterovirus 71 (EV71) [2] turned out to be 4.1.

Consider `Cn1cc(C(Nc2nc3ccccc3s2)c2ccccc2F)c2ccccc21` (stereo not shown) [Compound 4r], for which the “SI Vero” value in the data set on Enterovirus 71 (EV71) [1] worked out at 13.4. The “SI RD” value in the data set with Enterovirus 71 (EV71) [2] amounted to 20.5. The like results for `Clc1ccccc1C(Nc1ccccn1)c1c[nH]c2ccccc12` (stereo not shown) [Compound 4b] were, in that order, 3.6 and 3.1. As for `Fc1ccc(C(c2c[nH]c3ccccc23)n2cncn2)cc1` (stereo not shown) [Compound 4u], in the data set with Enterovirus 71 (EV71) [1], the “SI Vero” value amounted to 2.1. In the data set on Enterovirus 71 (EV71) [2], the “SI RD” value is on record as 2.2.

`NC(=O)c1ncn([C@@H]2O[C@H](CO)[C@@H](O)[C@H]2O)n1` [ribavirin, reference compound]: the “SI Vero” value in the data set with Enterovirus 71 (EV71) [1] is more than 11. Besides, the “SI RD” value in the data set with Enterovirus 71 (EV71) [2] is listed as 13.6. The like results for `Clc1ccccc1C(Nc1nc2ccccc2s1)c1c[nH]c2ccccc12` (stereo not shown) [Compound 4p] were, in that order, 3.1 and 3.7. The like results for `FC(F)(F)c1ccc(C(Nc2ccccn2)c2c[nH]c3ccccc23)cc1` (stereo not shown) [Compound 4j] were, in that order, 1.8 and 2.1. The like results for `Fc1ccc(C(c2c[nH]c3ccccc23)n2cccn2)cc1` (stereo not shown) [Compound 4t] were, in that order, 5.5 and 4.8.
